Pooled drug test results. Numbers come from NIAID ChemDB, via PubChem.

Shared fields: whole-cell or culture tests; organism: Aspergillus niger; method: agar diffusion; read-out: zone

An empty or dashed field is not shown. Lines come from different laboratories, so protocols vary. Zone: diameter of growth inhibition.

compound,dose,strain,result
C[C@@H]1[C@H](O)[C@@H](C)/C=C/C=C/CC/C=C/C=C/C=C/C=C/C(O[C@H]2O[C@H](C)[C@@H](O)[C@H](N)[C@@H]2O)CC2O[C@](O)(CC(O)C(O)CCC(O)CC(O)CC(O)CC(=O)O[C@H]1C)CC(O)C2C(=O)O,10 µg/disc,MTCC 2723,23 mm
C(/C=C/c1ccccc1)=NCCNCCN=C/C=C/c1ccccc1.[Cl][Hg][Cl],10000 µg/mL,-,20 mm
Cc1ccc2nc(Cl)c(CNCc3ccccc3)cc2c1,200 µg/mL,MTCC 281,13.06 mm
COc1cc2occc2c2oc(-c3ccccc3)cc(=O)c12,50 µg/disc,-,18 mm
Cc1ccc(N2NOC(=O)C2S(=O)(=O)Nc2ccc(-n3c(-c4ccc(Cl)cc4)nc4ccccc4c3=O)cc2)cc1,250 µg/mL,MTCC 282,24 mm
Cc1ccc2nc(Cl)c(CNc3ccccc3Cl)cc2c1,200 µg/mL,MTCC 281,8.13 mm
CC(C)(CN=C/C=C/c1ccccc1[N+](=O)[O-])CN=C/C=C/c1ccccc1[N+](=O)[O-],2.5 mg/disc,-,0.8 mm
CC(=O)Oc1c(-c2ccc(Cl)cc2)oc2ccc(Cl)cc2c1=O,100 µg/mL,-,22 mm
Cc1cccc(NCc2cc3cc(C)ccc3nc2Cl)c1,200 µg/mL,MTCC 281,7.5 mm
Cc1ccc(N2NOC(=O)C2S(=O)(=O)Nc2nc(-c3ccc(F)cc3F)cs2)cc1,250 µg/mL,MTCC 282,22 mm
COc1ccc(NCc2cc3cc(C)ccc3nc2Cl)cc1,200 µg/mL,MTCC 281,9.76 mm
Cc1ccc(O)c(/C=N/NC(=O)Nc2nc(-c3ccccc3)cs2)c1,100 µg/mL,-,17 mm
C(/C=C/c1ccccc1)=NCCNCCN=C/C=C/c1ccccc1.[I][Hg][I],20000 µg/mL,-,40 mm
Cc1ccc2nc(Cl)c(CNc3ccccc3)cc2c1,200 µg/mL,MTCC 281,9.47 mm
O=c1cc(-c2ccccc2)oc2c1c(O)cc1occc12,50 µg/disc,-,11 mm
CC(=O)Oc1c(-c2ccccc2)oc2ccc(Cl)cc2c1=O,100 µg/mL,-,19 mm
CCC(C)n1ncn(-c2ccc(N3CCN(c4ccc(OC[C@H]5CO[C@](Cn6cncn6)(c6ccc(Cl)cc6Cl)O5)cc4)CC3)cc2)c1=O,150 µg/mL,ATCC 6275,13 mm
COc1ccc(-c2oc3ccc(Cl)cc3c(=O)c2OC(C)=O)cc1,100 µg/mL,-,22 mm
Cc1ccc2nc(Cl)c(CNc3ccc(Cl)c(Cl)c3)cc2c1,200 µg/mL,MTCC 281,15.86 mm
CC(=O)Oc1c(-c2ccc(F)cc2)oc2ccccc2c1=O,100 µg/mL,-,19 mm
C[C@@H]1[C@H](O)[C@@H](C)/C=C/C=C/CC/C=C/C=C/C=C/C=C/C(O[C@H]2O[C@H](C)[C@@H](O)[C@H](N)[C@@H]2O)CC2O[C@](O)(CC(O)C(O)CCC(O)CC(O)CC(O)CC(=O)O[C@H]1C)CC(O)C2C(=O)O,50 µg/disc,-,23 mm
Cc1ccc(N2NOC(=O)C2S(=O)(=O)Nc2ccc(-n3c(-c4cccc(Cl)c4)nc4ccccc4c3=O)cc2)cc1,250 µg/mL,MTCC 282,25 mm
O=c1c(O)c(-c2ccccc2)oc2ccccc12,100 µg/mL,-,12 mm